Measurements reported in PubChem BioAssay AID504761 (Drosophila RNAi Screening Center, 2011)
Assay: 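Genome-wide fly cell screen for genes dengue virus requires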 (primary screen). System: D.Mel-2 cells from Drosophila. Reagents: long dsRNA against Drosophila genes. Challenge: infection with dengue virus type 2; dose and infection time not stated. Read-out: 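Per well on two replicate plates, imaging gave the percent of cells positive for viral envelope protein, ranked by infection, and a nuclear count of cells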. Direction: infection score: higher = more virus-infected cells; cell count: higher = more cells in the well. Rule for the call: 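Low infection ranks in the two replicates (chance level up to 0.065) followed by a retest with a 1.5-fold or larger significant decrease, p below 0.05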. Meaning of the calls: active = confirmed: knock-down lowers infection; inactive = not picked or not confirmed.
The screen tested about 22,000 reagents; below is a random part of those with a known target gene and a result. Over the whole deposit, 116 (0.52%) are marked active. 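Calls depend on retest data that are not deposited; infection was ranked per plate without normalising between plates; the unit of the infection score is not given.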 The raw values are shown without normalisation. A number with no mark means an inactive call. Further read-outs or replicates are left out here. Not stated in the record: the amount of reagent, the time to read-out.

How did the screen score CG10589 [DRSC11629]?
infection score, replicate 1: 3.66; cell count, replicate 1: 6610

With CG14971 [DRSC08430], what was measured?
infection score, replicate 1: 25.9; cell count, replicate 1: 6449

How did the screen score CG3448 [DRSC10368]?
infection score, replicate 1: 1.19; cell count, replicate 1: 6146

What did the screen give for CG3448 [DRSC27580]?
infection score, replicate 1: 6.53; cell count, replicate 1: 6339

What is on record for RIC-3 [DRSC04243]?
infection score, replicate 1: 13.6; cell count, replicate 1: 6557

For RIC-3 [DRSC04543], how do the results read?
infection score, replicate 1: 18.6; cell count, replicate 1: 5605

For CG5860 [DRSC15896], what was measured?
cell count, replicate 1: 346

What did the screen give for CG33307 [DRSC01349]?
infection score, replicate 1: 1.74; cell count, replicate 1: 4258

For rtet [DRSC14160], how do the results read?
infection score, replicate 1: 3.88; cell count, replicate 1: 6165

For CG13021 [DRSC17893], what was measured?
infection score, replicate 1: 10.8; cell count, replicate 1: 5578

For witty [DRSC02378], how do the results read?
infection score, replicate 1: 8.31; cell count, replicate 1: 5751

What is on record for witty [DRSC21650]?
infection score, replicate 1: 2.84; cell count, replicate 1: 6023

What did the screen give for witty [DRSC26154]?
infection score, replicate 1: 13.4; cell count, replicate 1: 4980

What is on record for CG32631 [DRSC19768]?
infection score, replicate 1: 3.89; cell count, replicate 1: 6293

Which result is listed for CG32631 [DRSC28596]?
infection score, replicate 1: 17.5; cell count, replicate 1: 3862

What is on record for CG33475 [DRSC22943]?
infection score, replicate 1: 2.23; cell count, replicate 1: 5926

What did the screen give for CG30095 [DRSC07175]?
infection score, replicate 1: 13.9; cell count, replicate 1: 5977

With CG3703 [DRSC18172], how do the results read?
infection score, replicate 1: 1.96; cell count, replicate 1: 5497

For CG3703 [DRSC18173], what does the deposit list?
infection score, replicate 1: 0.93; cell count, replicate 1: 5929

For CG3703 [DRSC18643], what was measured?
infection score, replicate 1: 2.36; cell count, replicate 1: 6650

What did the screen give for CG31730 [DRSC01308]?
infection score, replicate 1: 1.52; cell count, replicate 1: 5780

With Adf1 [DRSC04941], how do the results read?
infection score, replicate 1: 1.14; cell count, replicate 1: 5981

What did the screen give for Adf1 [DRSC04963]?
infection score, replicate 1: 22.5; cell count, replicate 1: 5931

For mthl14 [DRSC07865], what was measured?
infection score, replicate 1: 1.95; cell count, replicate 1: 6117

With Tsp33B [DRSC02418], how do the results read?
infection score, replicate 1: 3.57; cell count, replicate 1: 6609

Which result is listed for Tsp33B [DRSC28982]?
infection score, replicate 1: 13.8; cell count, replicate 1: 4119

How did the screen score CG3124 [DRSC23062]?
infection score, replicate 1: 2.83; cell count, replicate 1: 6186

What did the screen give for CG3124 [DRSC26288]?
infection score, replicate 1: 13.7; cell count, replicate 1: 5698

Already shown: an excerpt of the list.
RIC-3 [DRSC04243] — infection score, replicate 1 = 13.6; cell count, replicate 1 = 6557
RIC-3 [DRSC04543] — infection score, replicate 1 = 18.6; cell count, replicate 1 = 5605
CG5860 [DRSC15896] — cell count, replicate 1 = 346
CG33307 [DRSC01349] — infection score, replicate 1 = 1.74; cell count, replicate 1 = 4258
